Pooled drug test results. Numbers come from NIAID ChemDB, via PubChem.

Common to all: target-level tests; agent: HIV-1; target: Protease; read-out: Ki

Neighbouring rows are from separate reports.

CC(C)(C)OC(=O)N[C@@H](Cc1ccccc1)[C@@H](O)CN[C@@H](Cc1ccccc1)C(=O)N[C@@H](CCC(=O)O)C(=O)N[C@@H](Cc1ccccc1)C(N)=O ; read by: absorbance ; result: 0.0001 µM
COC(=O)c1cccc(CN2C(=O)N(Cc3cccc(-c4ccn[nH]4)c3)[C@H](Cc3ccccc3)[C@H](O)[C@@H](O)[C@H]2Cc2ccccc2)c1 ; strain: RF ; read by: fluorescence ; result: 0.00014 µM
CC[C@H](C)[C@H](NC(=O)[C@H](Cc1ccccc1)NC[C@H](O)[C@H](Cc1ccccc1)NC(=O)OC(C)(C)C)C(=O)N[C@@H](Cc1ccccc1)C(N)=O ; read by: absorbance ; result: 0.15 µM
Nc1cccc(CN2C(=O)N(Cc3cccc(-c4ccn[nH]4)c3)[C@H](Cc3ccccc3)[C@H](O)[C@@H](O)[C@H]2Cc2ccccc2)c1 ; strain: RF ; read by: fluorescence ; result: 0.000035 µM
CC(C)(C)OC(=O)N[C@@H](COc1ccccc1)[C@H](O)[C@H](O)[C@H](COc1ccccc1)NC(=O)OC(C)(C)C ; read by: absorbance ; result: 0.232 µM
O=C(Cc1ccc2c(c1)OCO2)N[C@@H](Cc1ccccc1)[C@@H](O)C[C@H](Cc1ccccc1)NC(=O)[C@@H]1CN(c2ccccc2)C(=O)O1 ; changes: Q7K ; read by: substrate cleavage / FRET ; result: 0.657 µM
CC(C)(C)OC(=O)N[C@@H](Cc1ccccc1)[C@H](O)C[C@H](Cc1ccccc1)C(=O)N[C@@H](CCC(=O)O)C(=O)N[C@@H](Cc1ccccc1)C(N)=O ; read by: absorbance ; result: 0.00022 µM
Cc1ccc(S(=O)(=O)N(CC(C)C)[C@@H](CCCCNC(=O)[C@H](Cc2ccccc2)NC(=O)NCCO)C(=O)O)cc1 ; read by: FRET ; result: 0.0021 µM
CC(C)(C)OC(=O)N[C@@H](COc1ccccc1)[C@@H](O)[C@H](O)[C@H](Cc1ccccc1)NC(=O)OC(C)(C)C ; read by: absorbance ; result: 0.073 µM
CC(C)(C)OC(=O)N[C@@H](Cc1ccccc1)[C@H](O)C[C@@H](Cc1ccccc1)C(=O)N[C@@H](CCC(N)=O)C(=O)N[C@@H](Cc1ccccc1)C(N)=O ; read by: absorbance ; result: 0.028 µM
O=C(N[C@@H](Cc1ccccc1)[C@@H](O)C[C@H](Cc1ccccc1)NC(=O)[C@@H]1CN(c2cccc(C(F)(F)F)c2)C(=O)O1)OCc1cccnc1 ; changes: Q7K ; read by: substrate cleavage / FRET ; result: 0.04109 µM
CC(C)(C)OC(=O)N[C@@H](Cc1ccccc1)[C@@H](O)C[C@H](Cc1ccccc1)C(=O)N[C@@H](CCC(=O)O)C(=O)N[C@@H](Cc1ccccc1)C(N)=O ; read by: absorbance ; result: 0.00015 µM
CC(C)[C@H](NC(=O)N(C)Cc1ccccn1)C(=O)N[C@@H](Cc1ccccc1)[C@H](O)[C@H](O)[C@H](Cc1ccccc1)NC(=O)[C@@H](NC(=O)N(C)Cc1ccccn1)C(C)C ; changes: PR-R8Q ; read by: fluorescence ; result: 0.0027 µM
O=C1N(Cc2cccc(/C(=N\O)C(F)(F)F)c2)[C@H](Cc2ccccc2)[C@H](O)[C@@H](O)[C@@H](Cc2ccccc2)N1Cc1cccc(/C(=N\O)C(F)(F)F)c1 ; strain: RF ; read by: fluorescence ; result: 0.0039 µM
Cc1ccc(S(=O)(=O)N[C@@H](Cc2c[nH]c3ccccc23)C(=S)NCCCC[C@@H](C(=O)O)N(CC(C)C)S(=O)(=O)c2ccc(C)cc2)cc1 ; read by: FRET ; result: 0.0048 µM
O=C1N(Cc2cccc(/C=N/O)c2)[C@H](Cc2ccccc2)[C@H](O)[C@@H](O)[C@@H](Cc2ccccc2)N1Cc1cccc(/C=N/O)c1 ; strain: RF ; result: 0.00001 µM
CC[C@H](C)[C@H](NC(=O)[C@H](Cc1ccccc1)C[C@H](O)[C@H](Cc1ccccc1)NC(=O)OC(C)(C)C)C(=O)N[C@@H](Cc1ccccc1)C(N)=O ; read by: absorbance ; result: 0.00022 µM
CC(C)(C)OC(=O)N[C@@H](Cc1ccccc1)[C@@H](O)C[C@@H](Cc1ccc(OCCN2CCOCC2)cc1)C(=O)N[C@H]1c2ccccc2C[C@H]1O ; read by: fluorescence ; result: 0.000051 µM
COc1ccc(S(=O)(=O)N(CC(C)C)C[C@@H](O)[C@H](Cc2ccccc2)NC(=O)O[C@H]2CCC[C@H]3O[C@@H]4OCC[C@@H]4[C@@H]23)cc1 ; read by: substrate cleavage / fluorescence ; result: 0.0167 µM
O=C1N(Cc2cccc(-c3nn[nH]n3)c2)[C@H](Cc2ccccc2)[C@H](O)[C@@H](O)[C@@H](Cc2ccccc2)N1Cc1cccc(-c2nn[nH]n2)c1 ; strain: RF ; result: 0.0066 µM
Cc1cccc(C)c1OCC(=O)N[C@@H](Cc1ccccc1)[C@@H](O)C[C@H](Cc1ccccc1)NC(=O)[C@@H]1CN(c2ccccc2)C(=O)O1 ; strain: WT ; read by: FRET ; result: 0.00728 µM